In general, Kd refers to the concentration at which binding is half-saturated. A high value points to weaker binding. As usually defined, the koff is a measure of how fast the partners let go of each other. Higher therefore signals a short-lived complex.

Experiment [1] deals with T1, RAC1^WT (Ras-related C3 botulinum toxin substrate 1, wild type), purified (human, UniProt P63000 1-192). Briefly: mdGDP-bound RAC1.
Experiment [2] addresses T1, RAC1^WT (Ras-related C3 botulinum toxin …). Briefly: mGppNHp-bound RAC1.
Experiment [3] has the same target. Briefly: FP; mGppNHp-bound RAC1.
Experiment [4] shares this target. Put plainly: mGppNHp-bound RAC1. This is another data set of the same source.

B1: GST-GDI1 (guanosine dissociation inhibitor 1, full-length) (natural protein)
chain: MAEQEPTAEQLAQIAAENEEDEHSVNYKPPAQKSIQEIQELDKDDESLRKYKEALLGRVAVSADPNVPNVVVTGLTLVCSSAPGPLELDLTGDLESFKKQSFVLKEGVEYRIKISFRVNREIVSGMKYIQHTYRKGVKIDKTDYMVGSYGPRAEEYEFLTPVEEAPKGMLARGSYSIKSRFTDDDKTDHLSWEWNLTIKKDWKD
Consider B1, for which, in experiment [1], the Kd came to 0.47 µM.

B2: GST-PAK1 RBD (RAC1 binding domain of p21-activated kinase 1) (domain or fragment)
chain: SILPGDKTNKKKEKERPEISLPSDFEHTIHVGFDAVTGEFTGMPEQWARLLQTSNITKSEQKKNPQAVLDVLEFYNSKKTSNSQK
Turning to B2, the koff in experiment [2] was determined as 0.146 s⁻¹. The Kd in experiment [3] turned out to be 1.16 µM; in experiment [4] it was 0.85 µM.

B3: His-IQGAP1 C794 (C-terminal 794 amino acids of IQ motif-containing GTPase-activating protein 1) (domain or fragment)
chain: PPMVVVRKFVHLLDQSDQDFQEELDLMKMREEVITLIRSNQQLENDLNLMDIKIGLLVKNKITLQDVVSHSKKLTKKNKEQLSDMMMINKQKGGLKALSKEKREKLEAYQHLFYLLQTNPTYLAKLIFQMPQNKSTKFMDSVIFTLYNYASNQREEYLLLRLFKTALQEEIKSKVDQIQEIVTGNPTVIKMVVSFNRGARGQNALRQILAPVVKEIMDDKSLNIKTDPVDIYKSWVNQMESQTGEASKLPYDVTPEQALAHEEVKTRLDSSIRNMRAVTDKFLSAIVSSVDKIPYGMRFIAKVLKDSLHEKFPDAGEDELLKIIGNLLYYRYMNPAIVAPDAFDIIDLSAGGQLTTDQRRNLGSIAKMLQHAASNKMFLGDNAHLSIINEYLSQSYQKFRRFFQTACDVPELQDKFNVDEYSDLVTLTKPVIYISIGEIINTHTLLLDHQDAIAPEHNDPIHELLDDLGEVPTIESLIGESSGNLNDPNKEALAKTEVSLTLTNKFDVPGDENAEMDARTILLNTKRLIVDVIRFQPGETLTEILETPATSEQEAEHQRAMQRRAIRDAKTPDKMKKSKSVKEDSNLTLQEKKEKIQTGLKKLTELGTVDPKNKYQELINDIARDIRNQRRYRQRRKAELVKLQQTYAALNSKATFYGEQVDYYKSYIKTCLDNLASKGKVSKKPREMKGKKSKKISLKYTAARLHEKGVLLEIEDLQVNQFKNVIFEISPTEEVGDFEVKAKFMGVQMETFMLHYQDLLQLQYEGVAVMKLFDRAKVNVNLLIFLLNKKFYGK
On to B3, for which the Kd in experiment [4] worked out at 1.4 µM.

Source of the values: publication PMC12702776 (2025).
